Anti-infective test results gathered from many reports (values: NIAID ChemDB through PubChem).

Common to all: enzyme or target tests; organism: HIV-1; protein: Reverse transcriptase; method: nucleotide incorporation / radiometric; endpoint: IC50

a–b is a range or a potency band. Neighbouring rows are from separate reports. An empty or dashed field is not shown. ICn is the concentration giving n% inhibition.

compound,mutations,strain,value
Cc1ccc(-n2c(SCC(=O)Nc3ccc(C(=O)O)cc3Cl)nnc2C(F)F)c2c1CCCC2,,,<0.05 µM
CCN1c2ncc(CCOc3ccc(-c4cn(C)cn4)cc3C)cc2C(=O)N(C)c2cccnc21,,IIIB,<0.05 µM
CCOC(=O)CNC(=O)c1ccc(NC(=O)CSc2nnc(Br)n2-c2ccc(C3CC3)c3ccccc23)c(Cl)c1,RT-Y181C,,0.05–0.1 µM
CCN1c2ncc(CCOc3cccc4c3CNC(=O)N4)cc2C(=O)Nc2c(C)ccnc21,,IIIB,<0.05 µM
CCc1ccc(-n2c(Br)nnc2SCC(=O)Nc2ccc(C(=O)NCC(C)O)cc2Cl)c2ccccc12,RT-Y181C,,<0.05 µM
CCN1c2ncc(CCOc3cccc4c3CNC4=O)cc2C(=O)N(C)c2cccnc21,,IIIB,<0.05 µM
Cc1cc(C2CC2)cc(Cl)c1-n1c(Br)nnc1SCC(=O)Nc1ccc(S(N)(=O)=O)cc1Cl,,,<0.05 µM
CCN1c2ncc(CCOc3ccc(C(=O)O)c4ccccc34)cc2C(=O)Nc2c(C)cc(F)nc21,,WT,<0.1 µM
CCN1c2ncc(CCOc3ccc(-c4ccc(C(=O)O)c(C)c4)cc3C)cc2C(=O)N(C)c2cccnc21,RT-K103N Y181C,IIIB,<0.05 µM
Nc1ccn([C@H]2CC[C@@H](COP(=O)(O)OP(=O)(O)OP(=O)(O)O)O2)c(=O)n1,RT-F116Y,,0.042 µM
CCc1ccc(-n2c(CF)nnc2SCC(=O)Nc2ccc(C(=O)O)cc2Cl)c2ccccc12,RT-Y181C,,<0.05 µM
CCN1c2ncc(CCOc3ccc4c(c3)CN(C)C(=O)N4C)cc2C(=O)N(C)c2cccnc21,RT-K103N Y181C,IIIB,>0.1 µM
CCN1c2ncc(CCOc3ccc(S(=O)(=O)NC(C)=O)c4ccccc34)cc2C(=O)N(C)c2cccnc21,RT-V106A,,>1 µM
Cc1ccc2c(C)ccc(-n3c(Br)nnc3SCC(=O)Nc3ccc(S(N)(=O)=O)cc3Br)c2c1,RT-Y181C,,<0.05 µM
CCN1c2ncc(CCOc3ccc(-c4cc(C(=O)O)ccc4C)cc3C)cc2C(=O)N(C)c2cccnc21,,IIIB,<0.05 µM
O=C(CSc1nnc(Br)n1-c1ccc(C2CC2)cc1OC(F)(F)F)Nc1ccc(S(=O)(=O)O)cc1Cl,,,<0.05 µM
CCN1c2ncc(CCOc3cccc4c3CNC(=O)N4CC(=O)O)cc2C(=O)N(C)c2cccnc21,RT-K103N Y181C,IIIB,>0.1 µM
CCc1ccc(-n2c(SCC(=O)Nc3ccc(S(N)(=O)=O)cc3C)nnc2C(F)F)c2ccccc12,RT-Y181C,,0.05–0.1 µM
CCN1c2ncc(CCOc3ccc(NC(=O)c4ccccc4C(=O)O)cc3C)cc2C(=O)N(C)c2cccnc21,RT-K103N Y181C,IIIB,>0.1 µM
CCN1c2ncc(CCOc3cccc4c3CNC4=O)cc2C(=O)Nc2c(C)ccnc21,RT-K103N Y181C,IIIB,>0.1 µM
CCN1c2ncc(CCOc3ccc(CCC(=O)O)c4ccccc34)cc2C(=O)N(C)c2ccc(Cl)nc21,RT-K103N Y181C,,0.1–1 µM
Nc1nc2c(ncn2[C@H]2CC[C@@H](COP(=O)(O)OP(=O)(O)OP(=O)(O)O)O2)c(=O)[nH]1,RT-Q151M,,0.075 µM
Cc1cc(C2CC2)ccc1-n1c(Br)nnc1SCC(=O)Nc1ccc(S(N)(=O)=O)cc1Cl,RT-Y188L,,>0.1 µM
CCN1c2ncc(CCOc3ccc(C(=O)NN)cc3C)cc2C(=O)N(C)c2cccnc21,RT-K103N Y181C,IIIB,<0.05 µM
Cc1ccnc2c1NC(=O)c1cc(CCOc3cccc4c3CNC(=O)N4)cnc1N2C1CC1,,IIIB,<0.05 µM
NS(=O)(=O)c1ccc(NC(=O)CSc2nnc(C(F)F)n2-c2ccc3c4c(cccc24)CC3)c(Cl)c1,RT-Y188L,,>0.1 µM
CCN1c2ncc(CCOc3cccc4c3COC(=O)N4)cc2C(=O)N(C)c2cccnc21,RT-K103N Y181C,IIIB,>0.1 µM
CCN1c2ncc(CCOc3cccc(-c4cccc(C(=O)O)c4)c3)cc2C(=O)N(C)c2cccnc21,,IIIB,>0.1 µM
CCN1c2ncc(CCOc3ccc(C(=O)O)c4c3CCN(C(=O)N(C)C)C4)cc2C(=O)N(C)c2cccnc21,RT-V106A,,0.1–1 µM
CCN1c2ncc(CCOc3ccc(C(=O)Nc4ccc(CC(=O)O)cc4)cc3C)cc2C(=O)N(C)c2cccnc21,,IIIB,<0.05 µM
Cc1ccc(-n2c(C)nnc2SCC(=O)Nc2ccc(S(N)(=O)=O)cc2Cl)c2c1CCCC2,,,<0.05 µM
CCN1c2ncc(CCOc3ccc(-c4ccc(CC(=O)O)cc4C)cc3C)cc2C(=O)N(C)c2cccnc21,RT-K103N Y181C,IIIB,0.05–0.1 µM
CCN1c2ncc(CCOc3cccc4c3CN(Cc3ccncc3)C4=O)cc2C(=O)N(C)c2cccnc21,RT-K103N Y181C,IIIB,0.05–0.1 µM

Repeating the final 2 entries:

compound	mutations	strain	value
CCN1c2ncc(CCOc3ccc(-c4ccc(CC(=O)O)cc4C)cc3C)cc2C(=O)N(C)c2cccnc21	RT-K103N Y181C	IIIB	0.05–0.1 µM
CCN1c2ncc(CCOc3cccc4c3CN(Cc3ccncc3)C4=O)cc2C(=O)N(C)c2cccnc21	RT-K103N Y181C	IIIB	0.05–0.1 µM